From the supplement of paper PMC9931576
Human monoclonal antibodies against the spike receptor-binding domain (heavy:light variable regions). IC50 against pseudoviruses bearing the spike of naturally observed variants; lower = stronger; >10 µg/ml means not reached at the top dose. No active / inactive call. The stated detection limit is 0.0005 µg/ml; values near or below 0.001 µg/ml lie at the floor of the assay.

B1: BD57-0219 (protein)
chain 1: QVQLQESGPRLVKSSETLSLTCTVSGVSISSSYWSWIRQPPGKGLEWIGNIFYSGSTNYNPSLKSRVTISVDTSQMHFSLRLSSVTAADTAVYYCARDPLGYKGGEFDYWGQGTLVTVSS
chain 2: QSVLTQPPSVSAAPGQKVTISCSGSNSNIGDNYISWYQHLPGTAPRLLIYDNNKRPSGIPDRFSGSKSGTSATLGITGLQTGDEADYYCGTWDSSLNIVLFGGGTKLTVL
B2: BD57-0218 (protein)
chain 1: QVQLVQSGAEVKKPGASVRVSCKASDYTFTTYTITWVRQAPGRGLEWMGWISAYNGDTNYAQRLQGRVTMTTDTSTSTAYLELRSLRSDDTAVYYCASDFGDAGLVSGLDVWGQGTTVTVSS
chain 2: DIQMTQSPSSLSASVGDRVTVTCRASQSIRNFLHWYQQKPGKAPKLLIHAASSLQSGVPSRFSGSGSGTDFTLTISSLQPEDFATYYCQQSYSSPHTFGPGTKVDIK
B3: BD57-0202 (protein)
chain 1: EVQLVQSGPEVKKPGESLNISCKASGYSFSTYWIAWVRQMPGKGLEWMGMIYPGDSDTRYSPSFQGQVTISADNSINTAYLQWSSLKASDTAIYYCATGSQWPPYYYYMDVWGKGTTVIVSS
chain 2: DIQMTQSPSSLSASVGDRVTITCRASQSIGDYVNWYQQKPGRAPKLLISAASSLQRGVPSRFSGSGSGTDFSLTISSLQPEDFATYYCQQSYTILWTFGQGTKVDIK
B4: BD57-0212 (protein)
chain 1: EVQLVESGGGLVQPGGSLRLSCTASGFTFSNYDFLWVRQATGKSLEWVSAIGTAGDTYYPDSVKGRFTISRENAKNSLYLQMNSLRAGDTAVYYCARDSGESSSWIFDYWGQGILVTVTS
chain 2: DIQMTQSPSSLSASVGDRVTITCRASQSINRFLNWYQQKPGKAPKLLIYAASSLQSGVPSRFSGSGSGTHYTLTISSLQPEDFATYYCQQSYETPAITFGGGTKVEIK
B5: BD57-0205 (protein)
chain 1: EVHLVQSGAEVKKPGESLKISCKGSGYNFSFYWIAWVRQMPGKGLEWMGIIYPGDSDTRYSPSFQGQVTISADKSISTAYLQWSSLKASDTAIYYCARLDILTGSGRYWGQGTLVTVSS
chain 2: DIQMTQSPSSLSASVGDRVTITCQASQDITNHLNWYQQKPGQAPKLLIYDASILETGVPSRFSGSGSGTDFTFTISSLQPEDIATYYCQQFKTLLTWTFGQGTKVAIK
B6: BD57-0194 (protein)
chain 1: EVQLVESGGGLVQPGRSLTLSCVGSGFTFDDYAMHWIRQAPGKGLEWVSGLSWNGGTIDYVDSVKGRFIISRDPVKNSLYLHMRSLRVEDTGIYYCVKDKKTNYGSGSKRWDTSHYFDDWGQGTLVTVSS
chain 2: DIQMTQSPSSVSASVGGRVTITCQASQDISNYLNWYQQKPGKAPKLLISDASNLEKGVPSRFSGRGSGTDFTFTISRLEPEDIATYYCQQYDDPPLTFGGGTKVEIK
B7: BD57-0199 (protein)
chain 1: QVQLQESGPGLVKPSQTLSLTCSVSGGSLITSYYYWSWIRQRPGKGLEWIGYIYHSGNTYYNPSLKSRVTISIDTSTNEISLKLTSVTAADTAVYFCARDFGGNANYFGYWGQGSLVTVSS
chain 2: DIQMTQSPASLPASVGDRVTITCQASQDISKYLSWYQQKPGKAPNLLIYDASDLETGVPSRFSGSGSGTKFTFTISSLQPEDFATYYCQQYANLPITFGQGTRLETK
B8: BD57-0198 (protein)
chain 1: QVQLQESGPGLVKPSQTLSLTCTVSGGSISSGDFYWSWIRQLPGKGLEWIGYIYYSGGTFYNPSLRSRLSISVDTSKNQFSLKLSSVTAADTAVYYCARDKDYSDSGGPAVTWGVAAFDIWGQGTMVTVSS
chain 2: DIQMTQSPSSLSASVGDRVTITCQASQDISNYLNWYQQKPGKAPKLLIYDASNLETGVPSRFTGSGSGTDFTFTISSLQPEDIATYYCQQYDNLPPTFGQGTKVEVK
B9: BD57-0222 (protein)
chain 1: EVQLVQSGAVLKKPGESLKISCTGSGYSFTNYWIAWVRQRPGKGLEWMGIIYPGDSDTRYNPSFQGQVTFSTDMSTAYLQWNSLKASDTAIYYCATSRGGAYDPYGDYPHWGQGTLVTVSS
chain 2: EIVLTQSPATLSLSPGERGTLSCGASQSLGGPYLAWYQQKPGLAPRLLIYEASNRATGIPDRFSGSGSGTDFTLTISKLEPEDFAVYYCQQYGSSPLTFGGGTRVEIK
B10: BD57-0206 (protein)
chain 1: QVQLVESGGGVVQPGRSLRLSCAASGFSLITYDIHWVRQAPGKGLEWVANIWYDGSNKYYVDSVKGRFTISRDNSKNTVFLQMNSLRAEDTAVYYCARDSGIVVASPDYWGQGTLVIVSS
chain 2: DVVMTQSPPSLPVTLGQPASISCRSSQSLVYVDGNTYLSWFHQRPGQSPRRLIYEVSNRGSGVPDRFSGSGSGTDFTLKISRVEAEDVGVYYCMQGTHWPWTFGQGTKVELK
B11: BD57-0203 (protein)
chain 1: EVQLVESGGGLVKPGGSLRVSCAASGFTFSDYSMNWVRQAPGRGLEWVSSISPRNSNRFYADSVKGRFTISRDNAKNSLYLQMSSMRAEDTAVYYCARGDLWGFDLVIGVAGHFDYWGPGTLVTVSS
chain 2: EIVLTQSPGTLSLSPGERATLSCRASQSVSSSSLAWYQQKPGQAPRLVIYGSSSRAAGIPDRFSGFGSGTDFTLTISRLEPEDFAMYYCQQFGTSPLYTFGQGTKLEIK
B12: BD57-0195 (protein)
chain 1: QVQLQESGPGLVKPSQTLSLTCTVSGDSISRGGYYWSWIRQHPGKGLEWIGHIYYSGSTYYNPSLKSRVAISVDTSKNHFSLRLSSVTAADTAVYYCARVVDTAAQLDPWGQGTLVTVSS
chain 2: QSVLTQPPSVSAAPGQKVTISCSGSSSNIGNSFVSWYQQFPGRAPKLLIYDDDKRPSGTPDRFSGSKSGTSATLGITGLQTGDEADYYCGTWDSSLNSGVFGGGSKLTVL

target: SARS-CoV-2 Omicron BA.1 spike pseudovirus; test: pseudovirus neutralization IC50; higher = weaker neutralization
Protocol: (§1)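 Single-round VSV luciferase pseudovirus mixed with antibody dilutions for 1 h and put on Huh-7 cells for about a day; IC50 from the dose curve.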

Row | Binder | pseudovirus neutralization IC50 [µg/mL]
1 | B1 | 1.58
2 | B2 | 1.05
3 | B3 | 0.883
4 | B4 | 3.44
5 | B5 | 0.00219
6 | B6 | 0.174
7 | B7 | 3.43
8 | B8 | > 10
9 | B9 | 0.605
10 | B10 | 1.19
11 | B11 | 3.07
12 | B12 | 1.2

target: SARS-CoV-2 Omicron BA.2 spike pseudovirus; test: as above
Protocol: as §1

Row | Binder | pseudovirus neutralization IC50 [µg/mL]
13 | B1 | 1.49
14 | B2 | 1.31
15 | B3 | 1.28
16 | B4 | 3.05
17 | B5 | 0.00498
18 | B6 | 0.12
19 | B7 | 5.55
20 | B8 | > 10
21 | B9 | 0.336
22 | B10 | 1.09
23 | B11 | 1.77
24 | B12 | 2.04

target: SARS-CoV-2 Omicron BA.2.75 spike pseudovirus; test: as above
Protocol: as §1

Row | Binder | pseudovirus neutralization IC50 [µg/mL]
25 | B1 | 1.61
26 | B2 | 0.391
27 | B3 | 0.968
28 | B4 | 2.22
29 | B5 | 0.0212
30 | B6 | 0.0169
31 | B7 | 3.38
32 | B8 | > 10
33 | B9 | 0.557
34 | B10 | 0.721
35 | B11 | 3.03
36 | B12 | 1.97

target: SARS-CoV-2 Omicron BA.5 spike pseudovirus; test: as above
Protocol: as §1

Row | Binder | pseudovirus neutralization IC50 [µg/mL]
37 | B1 | 2.21
38 | B2 | 1.97
39 | B3 | 1.3
40 | B4 | 2.61
41 | B5 | 0.00678
42 | B6 | 0.143
43 | B7 | 5.64
44 | B8 | > 10
45 | B9 | 0.352
46 | B10 | 0.768
47 | B11 | 9.03
48 | B12 | 2.85

target: SARS-CoV-2 Omicron BQ.1.1 spike pseudovirus; test: as above
Protocol: as §1

Row | Binder | pseudovirus neutralization IC50 [µg/mL]
49 | B1 | 2.53
50 | B2 | > 10
51 | B3 | 2.2
52 | B4 | 3.99
53 | B5 | 3.33
54 | B6 | 2.94
55 | B7 | 5.2
56 | B8 | > 10
57 | B9 | 2.43
58 | B10 | > 10
59 | B11 | > 10
60 | B12 | > 10

target: SARS-CoV-2 Omicron XBB spike pseudovirus; test: as above
Protocol: as §1

Row | Binder | pseudovirus neutralization IC50 [µg/mL]
61 | B1 | 2.06
62 | B2 | > 10
63 | B3 | 2.1
64 | B4 | 3.26
65 | B5 | 3.31
66 | B6 | 0.403
67 | B7 | 4.58
68 | B8 | > 10
69 | B9 | 1.87
70 | B10 | 0.754
71 | B11 | 9.02
72 | B12 | 2

target: SARS-CoV-2 early D614G spike pseudovirus; test: as above
Protocol: as §1

Row | Binder | pseudovirus neutralization IC50 [µg/mL]
73 | B1 | 1.86
74 | B2 | 0.413
75 | B3 | 9.39
76 | B4 | 4.63
77 | B5 | 0.00327
78 | B6 | 0.0142
79 | B7 | > 10
80 | B8 | > 10
81 | B9 | 1.64
82 | B10 | > 10
83 | B11 | > 10
84 | B12 | > 10
